Results deposited as PubChem BioAssay AID504761 (Drosophila RNAi Screening Center, 2011)
The deposit covers about 22,000 reagents; below is a random part of those with a known target gene and a result. In the full data, 116 (0.52%) got an active call. 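Calls depend on retest data that are not deposited; infection was ranked per plate without normalising between plates; the unit of the infection score is not given.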 Raw values are not corrected between plates. Entries without a mark were called inactive. Reagents against one gene are numbered here. Not all columns of the deposit are shown. Not given: the amount of reagent, the time to read-out.

- Screen: 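Insect host genes that dengue virus relies on to spread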 (primary screen)
- Cell system: D.Mel-2 cells from Drosophila
- Knock-down reagent: long dsRNA against Drosophila genes
- Treatment: infection with dengue virus type 2; dose and infection time not stated
- Measurement: 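Cells stained for dengue envelope protein and imaged; percent of infected cells per well on duplicate plates, ranked by infection, with stained nuclei counted for cell number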
- Direction: infection score: higher = more virus-infected cells; cell count: higher = more cells in the well
- Active means: 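Very low infection ranking in both replicate wells (chance probability at most 0.065), then a retest showing infection dropped 1.5-fold or more at p below 0.05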
- Meaning of the calls: active = confirmed: knock-down lowers infection; inactive = not picked or not confirmed

CG6770 (GeneID 34621) #1 → infection score, replicate 1 = 3.5; cell count, replicate 1 = 6596
CG6770 (GeneID 34621) #2 → infection score, replicate 1 = 1.13; cell count, replicate 1 = 6014
Zmynd8 (GeneID 43730) #1 → infection score, replicate 1 = 1.1; cell count, replicate 1 = 6162
Zmynd8 (GeneID 43730) #2 → infection score, replicate 1 = 31.7; cell count, replicate 1 = 5165
CG2256 (GeneID 31727) #1 → infection score, replicate 1 = 1.54; cell count, replicate 1 = 6296
CG2256 (GeneID 31727) #2 → infection score, replicate 1 = 25.9; cell count, replicate 1 = 6061
CG17237 (GeneID 33411) → infection score, replicate 1 = 1.16; cell count, replicate 1 = 6390
CHKov2 (GeneID 43068) #1 → infection score, replicate 1 = 7.17; cell count, replicate 1 = 6809
CHKov2 (GeneID 43068) #2 → infection score, replicate 1 = 13.8; cell count, replicate 1 = 4323
spdo (GeneID 318559) #1 → infection score, replicate 1 = 0.81; cell count, replicate 1 = 6167
spdo (GeneID 318559) #2 → infection score, replicate 1 = 7.63; cell count, replicate 1 = 6321
CG3402 (GeneID 38077) → infection score, replicate 1 = 10.5; cell count, replicate 1 = 6465

The list goes on; the last 3 above are carried over.
spdo (GeneID 318559) #1 → infection score, replicate 1 = 0.81; cell count, replicate 1 = 6167
spdo (GeneID 318559) #2 → infection score, replicate 1 = 7.63; cell count, replicate 1 = 6321
CG3402 (GeneID 38077) → infection score, replicate 1 = 10.5; cell count, replicate 1 = 6465
SecCl (GeneID 39949) → infection score, replicate 1 = 11.5; cell count, replicate 1 = 5255
CCDC53 (GeneID 34097) → infection score, replicate 1 = 2.13; cell count, replicate 1 = 6348
CG9458 (GeneID 41214) → infection score, replicate 1 = 4.76; cell count, replicate 1 = 6539
CG10616 (GeneID 39420) → infection score, replicate 1 = 9.97; cell count, replicate 1 = 5579
wfs1 (GeneID 42679) → infection score, replicate 1 = 2.08; cell count, replicate 1 = 6102
dmrt11E (GeneID 32291) #1 → infection score, replicate 1 = 0.99; cell count, replicate 1 = 6384
dmrt11E (GeneID 32291) #2 → infection score, replicate 1 = 1.89; cell count, replicate 1 = 6971
CG9346 (GeneID 37381) → infection score, replicate 1 = 17.5; cell count, replicate 1 = 6467
abd-A (GeneID 42037) #1 → infection score, replicate 1 = 0.81; cell count, replicate 1 = 5201
abd-A (GeneID 42037) #2 → infection score, replicate 1 = 1.82; cell count, replicate 1 = 6441
abd-A (GeneID 42037) #3 → infection score, replicate 1 = 3.28; cell count, replicate 1 = 915
